Columns and labels:
CT antibodies = format: binding
BT antibodies = format: binding; conditions: BT 5 ng/ml; HAS 10 micrograms/ml

## HAS: human serum albumin, an inert protein
CT antibodies
  conductance response to injection: No response was observed
BT antibodies
  conductance response to injection: No response was observed

— patent publication US8232584B2 (priority 2005, dated 2012)
